Results of unrelated studies side by side (data: NIAID ChemDB).

Shared fields: enzyme or target tests; agent: HIV-1; target: Integrase; measure: IC50

Two numbers with a dash give a range or band.

compound | read by | value
COc1ccc(CNC(=O)/C=C(\O)C(=O)O)c(OC)c1 | strand transfer | <70 µM
CCNc1cn2ccn(Cc3cccc(Cl)c3)c(=O)c2c(O)c1=O | ELISA | 0.01–0.1 µM
CC(NC(=O)/C=C(\O)C(=O)O)c1ccc(F)cc1 | strand transfer | >70 µM
O=C1c2c(O)c(=O)n(C3CCOC3)c(=O)n2CCN1Cc1ccc(F)cc1 | strand transfer | <10 µM
CN(C)C(=O)c1cn2ccn(Cc3cccc(Cl)c3)c(=O)c2c(O)c1=O | ELISA | 0.01–0.1 µM
CC1(C)CC(n2c(=O)c(O)c3n(c2=O)CCN(Cc2ccc(F)cc2)C3=O)CCO1 | strand transfer | <10 µM
CCN(Cc1ccc(F)cc1)C(=O)/C=C(\O)C(=O)O | strand transfer | <70 µM
CC1(C)c2nc(C(=O)NCc3ccc(F)cc3)c(O)c(=O)n2CCN1Cc1ccccc1 | ELISA | <10 µM
Cc1ccccc1CNC(=O)/C=C(\O)C(=O)O | strand transfer | ~70 µM
CN1CCn2c(nc(C(=O)NCc3ccc(F)cc3)c(O)c2=O)C1CS(C)(=O)=O | ELISA | <10 µM
CC(C)C(=O)Nc1cn2ccn(Cc3ccc(F)cc3)c(=O)c2c(O)c1=O | ELISA | 0.01–0.1 µM
COc1ccc(CN(Cc2ccc(F)cc2)C(=O)/C=C(\O)C(=O)O)cc1Cl | strand transfer | <70 µM
CN(CC1c2nc(C(=O)NCc3ccc(F)cc3)c(O)c(=O)n2CCN1C)C(=O)c1cccc[n+]1[O-] | ELISA | <10 µM
O=C(O)CNC(=O)/C(O)=C/C(=O)N(Cc1ccc(F)cc1)Cc1ccc(F)cc1 | strand transfer | <70 µM
CN(C)S(=O)(=O)N(C)C1COCCn2c1nc(C(=O)NCc1ccc(F)cc1)c(O)c2=O | ELISA | <10 µM
CN(Cc1ccc(F)c2ccccc12)C(=O)/C=C(\O)C(=O)O | strand transfer | <70 µM
CC(=O)N1CCn2c(nc(C(=O)NCc3ccc(F)cc3)c(O)c2=O)C1CO | ELISA | <10 µM
CNC(=O)Cc1cn2ccn(Cc3cccc(Cl)c3)c(=O)c2c(O)c1=O | ELISA | 0.01–0.1 µM
CC(=O)N1CCn2c(nc(C(=O)NCc3ccc(F)cc3)c(O)c2=O)C1COCc1ccccc1 | ELISA | <10 µM
CCC(C)(C)C(=O)c1cn2ccn(Cc3ccc(F)cc3)c(=O)c2c(O)c1=O | ELISA | 0.01–0.1 µM
Cc1cc(CNC(=O)c2nc3n(c(=O)c2O)CCN(CC2CC2)CC3N(C)C(=O)C(=O)N(C)C)ccc1F | ELISA | <10 µM
CC(C)n1c(=O)c(O)c2n(c1=O)C(CCOCc1ccccc1)CN(Cc1ccc(F)cc1)C2=O | strand transfer | <10 µM
CN(C)CC1NCCn2c1nc(C(=O)NCc1ccc(F)cc1)c(O)c2=O | ELISA | <10 µM
CC(C)n1c(=O)c(O)c2n(c1=O)C(CCn1ccnc1)CN(Cc1ccc(F)cc1)C2=O | strand transfer | <10 µM

2 of the rows above, restated:

| compound | read by | value |
|---|---|---|
| COc1ccc(CNC(=O)/C=C(\O)C(=O)O)c(OC)c1 | strand transfer | <70 µM |
| CN(C)C(=O)c1cn2ccn(Cc3cccc(Cl)c3)c(=O)c2c(O)c1=O | ELISA | 0.01–0.1 µM |

Conditions beyond the fields shown may differ between rows. ICn is the concentration giving n% inhibition.